Reference: PMC2885305

Columns and labels:
Assay in all cases: purified protein
Conditions in all cases: 37.0 °C
[1] = test system: O=c1ccn([C@@H]2O[C@H](COP(=O)(O)OP(=O)(O)OP(=O)(O)O)[C@@H](O)[C@H]2O)c(=O)[nH]1
[2] = test system: Nc1ncnc2c1ncn2[C@@H]1O[C@H](COP(=O)(O)OP(=O)(O)OP(=O)(O)O)[C@@H](O)[C@H]1O
[3] = test system: Nc1nc2c(ncn2[C@@H]2O[C@H](COP(=O)(O)OP(=O)(O)OP(=O)(O)O)[C@@H](O)[C@H]2O)c(=O)[nH]1

## maltokinase (Mak) from Mycobacterium bovis BCG (Mycobacterium tuberculosis variant bovis BCG str. Tokyo 172)
[1]
  Km: 1300 ± 130 µM
  Vmax: 7.07 µmol/min/mg
[2]
  Km: 740 ± 120 µM
  Vmax: 21.4 µmol/min/mg
[3]
  Km: 1010 ± 170 µM
  Vmax: 18.6 µmol/min/mg
